Construct, isoform or probe ends are uncertain for at least one entry. At least one verdict rests on a figure or table, not on a statement of the authors. Tags and fusion partners may be left off the protein sequences shown.

Results on 6 sequences are retold here after article PMC3466309, “Initial Characterization of the Pf-Int Recombinase from the Malaria Parasite Plasmodium falciparum”.

Data set [1] has as its target T1, Pf-Int-C192 (Plasmodium falciparum 3D7) (UniProt C0H5A8).
T1 sequence (looked up): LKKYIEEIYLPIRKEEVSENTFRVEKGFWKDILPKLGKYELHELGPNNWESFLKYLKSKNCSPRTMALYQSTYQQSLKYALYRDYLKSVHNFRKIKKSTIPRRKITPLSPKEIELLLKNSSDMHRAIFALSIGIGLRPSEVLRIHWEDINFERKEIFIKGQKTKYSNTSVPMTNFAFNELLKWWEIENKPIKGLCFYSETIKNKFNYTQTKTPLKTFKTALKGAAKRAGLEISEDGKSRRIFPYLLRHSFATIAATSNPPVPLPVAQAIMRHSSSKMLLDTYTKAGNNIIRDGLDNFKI
Description: competition with a labelled probe. The settings on record: 150-fold excess vs Selex8-22, text: interaction not sequence-specific; EMSA: 50 mM Tris pH 8, 150 mM NaCl, 0.1 mM EDTA, 5 mM DTT, 50 ug/ml BSA, 2% glycerol, 0.5% Tween 20, 10 ug/ml poly(dI-dC) unless omitted, 10 nM DNA, 20 min at 20 C; recombinant protein; residues 192-490. A general note: Mobility shift assays separate free from complexed probe on a gel.

In data set [2] the target is T1, Pf-Int-C192 (Plasmodium falciparum 3D7). Nature of the data set: EMSA. The conditions noted are these: EMSA: 50 mM Tris pH 8, 150 mM NaCl, 0.1 mM EDTA, 5 mM DTT, 50 ug/ml BSA, 2% glycerol, 0.5% Tween 20, 10 ug/ml poly(dI-dC) unless omitted, 10 nM DNA, 20 min at 20 C, recombinant protein, residues 192-490.

In the case of “GTACTTACTCTAATCTAGTCGTAGTATGTATGCCTCAATGAA (double strand) [Random probe]”, the binding result in data set [1] was “binds”.

On to “ACCCAAACACACTGTGCGCGCGTCG (double strand) [Selex8-22]”, for which the binding result in data set [2] (0.3 uM protein, 10 nM probe, label: 5'-DY682 (probe) or unlabeled (competitor)) is given as “binds”.

Consider “GGATCCGGTTATAACGAACGCCTAAGGGGCTGTCAACGCA (double strand) [Modified attC site]”, for which the binding result in data set [1] is listed as “binds”.

“TCTGAAGAAGCTGTTGCTTTAGTAGTTGATAATGGAAGTGGT (double strand) [ActinII DNA]”: in data set [1], the binding result is “binds”.

“GCTAGTGCAAAAGGTTCAAAACCAAATTTACCAGAATCCAAT (double strand) [Hsp70 DNA]”: the binding result in data set [1] is listed as “binds”.

Regarding “CAAACACACTGTGCGCGCGTCG (double strand) [Selex8]”, in data set [2] (no poly(dI-dC), label: 5'-DY682 on strand 1), the binding result is “binds”.
